Measured values from several laboratories, pooled; numbers as filed in NIAID ChemDB.

All rows: whole-cell or culture tests; organism: HIV-1; endpoint: inhibition

Percent inhibition refers to the dose given; in toxicity tests it is the harm to the cells.

smiles | strain or isolate | dose | cell line | setting | method | result
C[C@H](Cn1cnc2c(N)ncnc21)OCP(=O)(O)O | IIIB | 1.09 µg/mL | C8166 | - | p24 / ELISA | 90%
O=[N+]([O-])c1ccc(C2ON=C(c3ccccc3)N2C23CC4CC(CC(C4)C2)C3)cc1 | - | 63 µM | CEM | - | cytopathic effect / XTT | 38.33%
CN(C(=O)[C@H](Cc1ccccc1)NC(=O)CNC(=O)c1ccccc1)c1cccc(Br)c1 | NL4-3 | 0.1 µM | TZM-gfp | - | GFP | 39.18%
CCN(C(=O)[C@H](Cc1ccccc1)NC(=O)Cc1cccc2ccccc12)c1ccccc1 | NL4-3 | 20 µM | - | - | fluorescence | 98%
COC(=O)CCCCCNC(=O)[C@]12CCC(C)(C)C[C@H]1C1=CC[C@@H]3[C@@]4(C)C[C@@H](O)[C@H](O)C(C)(C)[C@@H]4CC[C@@]3(C)[C@]1(C)CC2 | pNL4-3 | 25 µM | MT-2 | - | p24 / ELISA | 63.2%
O=C(O)CCCCCCCCCCCn1ccnn1 | - | 1 µg/mL | CEM | - | cytopathic effect | 19%
C[C@@H](CCC(=O)[C@](C)(O)[C@H]1[C@@H](O)C[C@H]2[C@@H]3CC=C4C[C@@H](O[C@@H]5O[C@H](CO)[C@H](O[C@@H]6O[C@H](CO)[C@@H](O)[C@H](O[C@@H]7OC[C@@H](O)C(O)[C@H]7O)[C@H]6O[C@@H]6O[C@H](CO)[C@@H](O)[C@H](O)[C@H]6O)[C@H](O)[C@H]5O)CC[C@]4(C)[C@H]3CC[C@@]21C)CO[C@@H]1O[C@H](CO)[C@@H](O)[C@H](O)[C@H]1O | - | 30 µM | SupT1 | pseudotyped | luciferase / single cycle | 47.72%
O=C(Cc1ccccc1)Nn1c(-c2ccccc2)nc2ccccc2c1=O | RF | 63 µM | CEM + CEM-SS | - | cytopathic effect / XTT | 59%
Brc1cccc(C2ON=C(c3ccccc3)N2C23CC4CC(CC(C4)C2)C3)c1 | - | 200 µM | CEM | - | cytopathic effect / XTT | 34.2%
Cc1cn(CC(=O)N[C@@H](Cc2ccccc2)C(=O)N(C)c2ccc(F)cc2)c(=O)[nH]c1=O | NL4-3 | 0.1 µM | TZM-gfp | - | GFP | 6.383%
CCCCCCCCCCCC(=O)CC(=O)O | - | 10 µg/mL | CEM | - | cytopathic effect | 7%
Cc1ccc(C)c2c1NC(=O)C2CC(=O)N[C@@H](Cc1ccccc1)C(=O)N(C)c1cccc(F)c1 | NL4-3 | 20 µM | - | - | fluorescence | 70%
C[C@H]1CC[C@@]2(OC1)O[C@H]1C[C@H]3[C@@H]4CC=C5C[C@@H](O[C@@H]6O[C@H](CO)[C@H](O[C@@H]7O[C@H](CO)[C@@H](O)[C@H](O)[C@H]7O[C@@H]7O[C@H](CO)[C@@H](O)[C@H](O)[C@H]7O)[C@H](O)[C@H]6O)CC[C@]5(C)[C@H]4CC[C@]3(C)[C@H]1[C@@H]2C | - | 30 µM | SupT1 | pseudotyped | luciferase / single cycle | 98.47%
O=P(O)(O)OP(=O)(O)OP(=O)(O)O | IIIB | 160 µg/mL | MOLT-4/MOLT-3 | - | syncytia | 0%
C[C@H]1[C@@H](OC(=O)CCC(=O)O)O[C@@H]2O[C@@]3(C)CC[C@H]4[C@H](C)CC[C@@H]1[C@@]24OO3 | BaL | 0.6 µM | PM1 | - | p24 | 36%
[N-]=[N+]=NCCCCCCCCCCCC(=O)O | - | 1 µg/mL | CEM | - | cytopathic effect | 82%
CC1C[C@H](O)[C@@H](O)CN1Cc1ccccc1 | BRU | 1 µg/mL | CEM + CEM-SS | - | cytopathic effect | 63%
CCOC(=O)/C=C/c1ccc(OC(=O)CCC(=O)Oc2c(C)c(C)c3c(c2C)CC[C@@](C)(CCC[C@H](C)CCC[C@H](C)CCCC(C)C)O3)cc1 | BaL | 5 µM | Macrophage + Monocytes/macrophages | - | - | 40%
N#Cc1ccc(C2ON=C(c3ccccc3)N2C23CC4CC(CC(C4)C2)C3)cc1 | - | 63 µM | CEM | - | cytopathic effect / XTT | 39.24%
CN(C(=O)[C@H](Cc1ccccc1)NC(=O)Cc1cccc2ccccc12)c1ccccc1 | NL4-3 | 2 µM | - | - | fluorescence | 66%
O[C@H]1CCN(Cc2ccccc2)C[C@@H]1O | BRU | 10 µg/mL | CEM + CEM-SS | - | cytopathic effect | 84%
CC1(c2nc3ccccc3[nH]2)CCC(C#N)C(C)(C)O1 | RF | 0.063 µM | CEM + CEM-SS | - | - | 5.15%
CC(=O)N1CCC(C(=O)N(CCCN2CCC(Cc3ccc(C(N)=O)cc3)CC2)c2ccc(C)c(Cl)c2)CC1 | HHA Clinical isolates | 0.004 µM | PBMC | - | p24 | 90%
Nc1ccn([C@H]2CC[C@@H](CO)O2)c(=O)n1 | NL4-3 | 1 µM | CEM/1G5 T | - | luciferase / cell fusion | 69%
NCCSSCCN | IIIB | 100 µM | PBL | - | p24 | 60%
Cc1cn([C@H]2C[C@H](n3nncc3-c3ccc4[nH]ccc4c3)[C@@H](CO)O2)c(=O)[nH]c1=O | IIIB | 10 µM | CEM-SS | - | cytopathic effect / MTT / absorbance | 2%
Cc1ccc(C)c2c1NC(=O)C2CC(=O)N[C@@H](Cc1ccccc1)C(=O)N(C)c1ccccc1 | NL4-3 | 2 µM | - | - | fluorescence | 0%
CN1CC[C@H](O)[C@@H](O)C1 | BRU | 100 µg/mL | CEM + CEM-SS | - | cytopathic effect | 6.1%
CCCCC[C@H](O)/C=C/C1C(=O)C[C@H](O)[C@@H]1C/C=C\CCCC(=O)O | - | 5 µM | U-937 | - | - | 45%
CCCCCCC(=O)NCCCCCC(=O)O | - | 10 µg/mL | CEM | - | cytopathic effect | 4%
CO[C@@]1(C)/C(=C/C[C@H](C)CO[C@@H]2O[C@H](CO)[C@@H](O)[C@H](O)[C@H]2O)O[C@H]2C[C@H]3[C@@H]4CC=C5C[C@@H](O[C@@H]6O[C@H](CO)[C@H](O[C@@H]7O[C@H](CO)[C@@H](O)[C@H](O[C@@H]8OC[C@@H](O)C(O)[C@H]8O)[C@H]7O[C@@H]7O[C@H](CO)[C@@H](O)[C@H](O)[C@H]7O)[C@H](O)[C@H]6O)CC[C@]5(C)[C@H]4CC[C@]3(C)[C@H]21 | - | 30 µM | SupT1 | pseudotyped | luciferase / single cycle | 48.63%
COC(=O)[C@H](C)NC(=O)[C@]12CCC(C)(C)C[C@H]1C1=CC[C@@H]3[C@@]4(C)C[C@@H](O)[C@H](O)C(C)(C)[C@@H]4CC[C@@]3(C)[C@]1(C)CC2 | pNL4-3 | 25 µM | MT-2 | - | p24 / ELISA | 91.1%
CN(C(=O)[C@H](Cc1ccccc1)NC(=O)CNC(=O)c1ccccc1)c1cccc(C(F)(F)F)c1 | NL4-3 | 0.1 µM | TZM-gfp | - | GFP | 21.35%
CC1(C)CC[C@]2(C(=O)NCCCC(=O)NCC(=O)O)CC[C@]3(C)C(=CC[C@@H]4[C@@]5(C)C[C@@H](O)[C@H](O)C(C)(C)[C@@H]5CC[C@]43C)[C@@H]2C1 | pNL4-3 | 10 µM | MT-2 | - | p24 / ELISA | -12.3%
CCCCCCCCC(=O)NCCCC(=O)O | - | 1 µg/mL | CEM | - | cytopathic effect | 8%
c1cc(CNCCCNC2CCCCC2)cc(CNc2nc(N3CCNCC3)nc3nc[nH]c23)c1 | IIIB | 10 µM | TZM-bl | - | luciferase | 12%
CN(C(=O)[C@H](Cc1ccccc1)NC(=O)CNC(=O)c1ccccc1)c1cccc(F)c1 | NL4-3 | 0.1 µM | TZM-gfp | - | GFP | 3.19%
Cc1ccc(C)c2c1NC(=O)C2CC(=O)N[C@@H](Cc1ccccc1)C(=O)N(C)c1cccc(Cl)c1 | NL4-3 | 20 µM | - | - | fluorescence | 99%
Cc1ccc(-c2ccc3c(c2)C=C(C(=O)Nc2ccc(C[N+](C)(C)C4CCOCC4)cc2)CCC3)cc1 | TB2 CLADE C | 1 µM | PBMC | - | p24 | 99.3%
CC(c1ccccc1)N1CC[C@H](O)[C@@H](O)C1 | BRU | 100 µg/mL | CEM + CEM-SS | - | cytopathic effect | 5.2%
N=C1Sc2ccccc2C2=NCCCN12 | 98IN017 | 1.8 µM | TZM-bl | - | β-galactosidase | 90%
COc1cccc(C2ON=C(c3ccccc3)N2C23CC4CC(CC(C4)C2)C3)c1 | - | 2 µM | CEM | - | cytopathic effect / XTT | 34.38%
CC1(C)CC[C@]2(C(=O)O)CC[C@]3(C)C(=CC[C@@H]4[C@@]5(C)C[C@@H](O)[C@H](O)C(C)(C)[C@@H]5CC[C@]43C)[C@@H]2C1 | pNL4-3 | 10 µM | MT-2 | - | p24 / ELISA | 43.7%
Cc1cc(C)c(S(=O)(=O)OCC2OC3OC4C(CO)OC(OC5C(CO)OC(OC6C(CO)OC(OC7C(CO)OC(OC8C(CO)OC(OC9C(C[n+]%10ccccc%10)OC(OC2C(O)C3O)C(O)C9O)C(O)C8O)C(O)C7O)C(O)C6O)C(O)C5O)C(O)C4O)c(C)c1 | LAV-1 | 42 µg/mL | MOLT-4 | - | syncytia | 100%
Nc1cc(S(=O)(=O)O)c2ccccc2c1N | IIIB | 3.4 µM | MOLT-4/HUT-78 | - | syncytia | 7%
CC1(c2nc3ccccc3[nH]2)CCC(CO)C(C)(C)O1 | RF | 0.063 µM | CEM + CEM-SS | - | - | 8.2%
CN(C(=O)[C@H](Cc1ccccc1)NC(=O)CNC(=O)c1ccccc1)c1cccc(Cl)c1 | NL4-3 | 0.1 µM | TZM-gfp | - | GFP | 42.11%
CC1(C)OC(=O)C2(C(=O)O1)[C@@H](c1ccccc1)CC(=O)C[C@H]2[C@H]1COC(C)(C)O1 | NL4-3 | 0.1 µM | SupT1 | - | MTT | >50%
Cc1ccc(C)c2c1NC(=O)C2CC(=O)N[C@@H](Cc1ccccc1)C(=O)N(C)c1ccc(Cl)cc1 | NL4-3 | 2 µM | - | - | fluorescence | 10%
O=S(=O)(O)c1ccc(-c2c3nc(c(-c4ccc(S(=O)(=O)O)cc4)c4ccc([nH]4)c(-c4ccc(S(=O)(=O)O)cc4)c4nc(c(-c5ccccc5)c5ccc2[nH]5)C=C4)C=C3)cc1 | IIIB | 5 µg/mL | MAGI | - | β-galactosidase | 48%
CCN(CC)CCCC(C)Nc1ccnc2cc(Cl)ccc12 | - | 100 µM | U-937 | - | RT activity | 66.12%
FC(F)(F)c1ccc(C2ON=C(c3ccccc3)N2C23CC4CC(CC(C4)C2)C3)cc1 | - | 2 µM | CEM | - | cytopathic effect / XTT | 20.45%
CC(C)CCCCCCCCCCCN(C)OP(=O)(O)N(CC(N)=O)P(=O)(O)OC1C(OC[C@H]2O[C@@H](n3ccc(=O)[nH]c3=O)[C@H](O)[C@@H]2O)=C(CO)C(O)C1O | IIIB | 1.5 µM | MOLT-4 | - | cytopathic effect / MTT | 96%
CCN1CC[C@H](O)[C@@H](O)C1 | BRU | 10 µg/mL | CEM + CEM-SS | - | cytopathic effect | 19.1%
CN(C(=O)[C@H](Cc1ccccc1)NC(=O)CC1NC(=O)NC1=O)c1ccc(Cl)cc1 | NL4-3 | 0.1 µM | TZM-gfp | - | GFP | 17.7%
C=C(C=O)[C@@H]1CC[C@@]2(C)C1C1CCC3[C@@]4(C)CC[C@H](O)C(C)(C)C4CC[C@@]3(C)[C@]1(C)C[C@@H]2O | - | 1 µM | CEM.NKR-CCR5 | - | - | 60%
CCCCCCCCCCCCCCO | IIIB | 10 µg/mL | H9 | - | RT activity | 49%
CN(C(=O)[C@H](Cc1ccccc1)NC(=O)CN1C(=O)NC2(CCCCC2)C1=O)c1ccc(Cl)cc1 | NL4-3 | 20 µM | - | - | fluorescence | 98%
CC1=C(CC[C@H](C)CO[C@@H]2O[C@H](CO)[C@@H](O)[C@H](O)[C@H]2O)O[C@H]2C[C@H]3[C@@H]4CC=C5C[C@@H](O[C@@H]6O[C@H](CO)[C@H](O[C@@H]7O[C@H](CO)[C@@H](O)[C@H](O[C@@H]8OC[C@@H](O)C(O)[C@H]8O)[C@H]7O[C@@H]7O[C@H](CO)[C@@H](O)[C@H](O)[C@H]7O)[C@H](O)[C@H]6O)CC[C@]5(C)[C@H]4CC[C@]3(C)[C@@H]12 | - | 30 µM | SupT1 | pseudotyped | luciferase / single cycle | 41.94%
Cc1ccc(N(C)C(=O)[C@H](Cc2ccccc2)NC(=O)CN2C(=O)NC3(CCCCC3)C2=O)cc1 | NL4-3 | 20 µM | - | - | fluorescence | 92%
O=C(O)C(O)c1ccccc1 | IIIB | 100 µg/mL | U87 (CD4+ CXCR4+) + U87 | - | p24 | 97%
CCOC(=O)CCCCCCCCCC(=O)O | - | 1 µg/mL | CEM | - | cytopathic effect | 27%
CCc1nc2cc3ccccc3cc2cc1C(=O)N[C@@H](C/C=C\C[C@H](NC(=O)c1cc2cc3ccccc3cc2nc1CC)C(=O)N1CCC[C@H]1C(=O)N[C@@H](Cc1ccccc1)C(=O)NCCCN)C(=O)N1CCC[C@H]1C(=O)N[C@@H](Cc1ccccc1)C(=O)NCCCN | - | 20 µM | HEK293T + TZM-bl | pseudotyped | luciferase | >90%
CC1(C)CC[C@]2(C(=O)NCCCC(=O)O)CC[C@]3(C)C(=CC[C@@H]4[C@@]5(C)C[C@@H](O)[C@H](O)C(C)(C)[C@@H]5CC[C@]43C)[C@@H]2C1 | pNL4-3 | 25 µM | MT-2 | - | p24 / ELISA | 6.2%
CO[C@@H](C[C@H](C)CO[C@@H]1O[C@H](CO)[C@@H](O)[C@H](O)[C@H]1O)C1=C(C)[C@H]2[C@H](C[C@H]3[C@@H]4CC=C5C[C@@H](O[C@@H]6O[C@H](CO)[C@H](O[C@@H]7O[C@H](CO)[C@@H](O)[C@H](O[C@@H]8OC[C@@H](O)C(O)[C@H]8O)[C@H]7O[C@@H]7O[C@H](CO)[C@@H](O)[C@H](O)[C@H]7O)[C@H](O)[C@H]6O)CC[C@]5(C)[C@H]4CC[C@@]32C)O1 | - | 30 µM | SupT1 | pseudotyped | luciferase / single cycle | 43.43%
CC1(c2nc3ccccc3[nH]2)CCC(C(=O)O)C(C)(C)O1 | RF | 200 µM | CEM + CEM-SS | - | - | 18.8%

Lines come from different laboratories, so protocols vary. Blank or dashed fields: not listed here.